Experimental data from publication PMC6757032 (Nature Communications, 2019).

Target: T1, full-length syntaxin-1A S186C-TMR (cysteine-free background C145A, C271A, C272A) (rat, S186C | C145A | C271A | C272A, tetramethylrhodamine on the cysteine at residue 186)
T1 construct: syntaxin-1A, rat, full length, S186C in the cysteine-free protein (C145A, C271A, C272A); The FRET acceptor chain of the trans-SNARE complex assays; it always stood together with SNAP-25; also called TMR-syntaxin-1A; TMR-syntaxin-1; source: E. coli BL21(DE3), purified as the unmodified construct, labelled, reconstituted in T-liposomes together with SNAP-25
Experiment: FRET or BRET; kinetics of trans-SNARE complex assembly: donor fluorescence of V-liposomes with synaptobrevin-2 L26C-Alexa-488 on mixing with T-liposomes with syntaxin-1A S186C-TMR and SNAP-25 M71D,L78D (1:4), 10 µM Syb49–93, 0.3 µM Munc13-1 C1C2BMUNC2C, with or without 2 µM αSNAP; 37 °C, 25 mM HEPES pH 7.4, 150 mM KCl, 1 mM TCEP
Conditions: both partners purified

B1: full-length synaptobrevin-2 L26C-Alexa-488 (cysteine-free background C103A), on V-liposomes (natural protein)
chain: not shown
modifications: Alexa-488 on the cysteine at residue 26
notes: synaptobrevin-2, rat, full length, L26C in the cysteine-free (C103A) protein; also called Alexa-488-synaptobrevin; Alex488-synaptobrevin
B1: binds.
